The assay concerns the target Pst_13661 (Puccinia striiformis f. sp. tritici, UniProt A0A0L0V0Y3, T32S). Briefly: Inhibitor screening and Ki determination, fluorescamine deacetylase assay with (GlcNAc)3. Type of assay: biochemical. Conditions: read-out: Pst_13661 Ki; Dixon plots, (GlcNAc)3 0.5, 0.2 and 0.1 mM.

The Ki is the dissociation constant of the complex between target and ligand, obtained from inhibition or displacement.

For `O=C(NO)c1ccccc1` [Compound 1, benzohydroxamic acid], the inhibitory constant (Ki) came to 9.83 µM.
